Biological target: S. mansoni TGR/Prx2 (Schistosoma mansoni, UniProt Q962Y6)
Details: read-out: qHTS IC50; initial high throughput screen of the collection; 25 nM TGR, 50 nM Prx2

Protein sequences, listed by entry. Tags and fused reporters are not part of them. Residues count along the entry.
UniProt Q962Y6, 1-598: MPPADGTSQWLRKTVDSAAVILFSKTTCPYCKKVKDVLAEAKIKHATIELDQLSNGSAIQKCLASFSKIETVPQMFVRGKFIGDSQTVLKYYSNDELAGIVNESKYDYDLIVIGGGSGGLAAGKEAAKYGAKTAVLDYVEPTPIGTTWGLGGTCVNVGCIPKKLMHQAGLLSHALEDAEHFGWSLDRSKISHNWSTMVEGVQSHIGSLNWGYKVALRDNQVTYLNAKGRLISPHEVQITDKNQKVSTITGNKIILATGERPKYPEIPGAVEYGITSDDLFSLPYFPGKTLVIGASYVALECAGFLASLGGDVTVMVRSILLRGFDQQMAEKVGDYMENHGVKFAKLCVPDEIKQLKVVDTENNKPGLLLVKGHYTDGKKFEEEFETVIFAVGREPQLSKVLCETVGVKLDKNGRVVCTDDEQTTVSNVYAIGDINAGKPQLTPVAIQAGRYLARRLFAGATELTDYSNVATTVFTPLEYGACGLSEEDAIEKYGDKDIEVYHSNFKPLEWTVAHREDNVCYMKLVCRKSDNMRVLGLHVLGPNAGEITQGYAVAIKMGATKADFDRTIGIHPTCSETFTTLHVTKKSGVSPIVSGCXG

`CCN1C(=O)c2cccc3cccc1c23` was tested, and the IC50 was 3.9 µM.
